Results of unrelated studies side by side (data: NIAID ChemDB).

Shared fields: enzyme or target tests; organism: HIV-1; protein: Reverse transcriptase

Inhibition is in % at the dose shown (toxicity tests: loss of growth or viability). Rows are shuffled and stem from different studies. ICn is the concentration giving n% inhibition. Fold resistance has wild type as its base. Blank or dashed fields: not listed here.

SMILES | mutations | tested at | read-out | read by | strain or isolate | result
C/C=C/CSc1cc(NC(=S)c2ccsc2C)ccc1Cl | RT-K103N | - | fold resistance | - | - | >13.33
CC(C)=CCOc1cc(NC(=S)c2ccoc2C)ccc1Cl | RT-Y181I | - | fold resistance | - | - | 2.97
CN(C)S(=O)(=O)N1CCN(C(=O)c2cc(O)c(O)c(O)c2)CC1 | - | - | IC50 | ELISA / nucleotide incorporation | BH10 | >50 µM
O=C1c2ccncc2C(=O)N1CCNC(=S)Nc1ccc(Br)cn1 | RT-Y188L | - | Ki | nucleotide incorporation | - | >5 µM
CCS(=O)(=O)N1CCC(NC(=O)c2cc(O)c(O)c(O)c2)CC1 | - | - | IC50 | ELISA / nucleotide incorporation | BH10 | >293.3 µM
COc1ccc2c(c1)N(C(=O)OC(C)C)[C@@H](CSC)C(=S)N2 | - | - | IC50 | scintillation proximity / radiometric | - | 0.08 µM
CC(C)(C)c1coc(N2C(=O)CSC2c2c(Cl)ncnc2Cl)n1 | - | 10 µg/mL | inhibition | RT activity / ELISA / absorbance | - | 2.53%
O=C1CSC(c2c(Cl)cccc2Cl)N1Cc1ccco1 | - | - | IC50 | ELISA | - | <10 µg/mL
c1ccc(C2SCc3nc4ccccc4n32)cc1 | - | - | IC50 | - | - | ~45 µM
O=C1CSC(c2c(F)cccc2F)N1n1cnnc1 | - | 100 µg/mL | inhibition | RT activity / ELISA / absorbance | - | 47.03%
Cc1cc(S(N)(=O)=O)ccc1NC(=O)COc1ccc(Cl)cc1C(=O)c1cc(Cl)cc(C#N)c1 | RT-P236L | - | IC50 | fluorescence | - | 0.0068 µM
O=C1CSC(c2cccnc2)N1Cc1ccco1 | - | - | IC50 | ELISA | - | >10 µg/mL
Cc1cn([C@H]2C=C[C@@H](COP(=O)(O)OP(=O)(O)OP(=O)(O)O)O2)c(=O)[nH]c1=O | RT-Y181I | - | Ki | RT activity | - | 0.09 µM
COc1ccc(/C=C/NC(=O)Nc2ccc(Cl)cn2)cc1OC | - | - | Ki | nucleotide incorporation | - | 7 µM
O=C(c1cc(O)c(O)c(O)c1)N1CCNCC1 | - | - | IC50 | ELISA / nucleotide incorporation | BH10 | >50 µM
CCc1c(Sc2ccccn2)n(COCc2ccccc2)c(=O)[nH]c1=O | RT-P236L | 50 µM | inhibition | - | - | 90%
Nc1ncnc2c1ncn2[C@@H]1O[C@H](COP(=O)(O)OP(=O)(O)OP(=O)(O)O)C[C@@H]1F | RT-L74V | - | Ki | nucleotide incorporation / radiometric | - | 9.5 µM
Cc1cn([C@H]2C=C[C@@H](COP(=O)(O)OP(=O)(O)OP(=O)(O)O)O2)c(=O)[nH]c1=O | - | - | Ki | - | - | 0.0014 µM
O=C(O)Cn1cnc2c(Oc3ccccc3[N+](=O)[O-])nc(NC(=O)OCc3ccccc3)nc21 | Y188L | - | Ki | nucleotide incorporation / radiometric | NNRTI-resistant | 35 µM
N#Cc1ccc(NC(=S)N[C@@H]2[C@@H]3COc4c(F)ccc(F)c4[C@@H]32)nc1 | Y181C | - | IC50 | scintillation proximity / radiometric | - | 0.016 µM
Cc1cn([C@H]2C=C[C@@H](COP(=O)(O)OP(=O)(O)OP(=O)(O)O)O2)c(=O)[nH]c1=O | RT-I132M | - | fold resistance | nucleotide incorporation / radiometric | - | 0.6
O=c1c2cccn2c2cccc(F)c2n1CCNC(=S)Nc1ccc(Br)cn1 | RT-K103N | - | fold resistance | nucleotide incorporation | - | 17.8
CN(C)C(=O)N1CCC(NC(=O)c2cc(O)c(O)c(O)c2)CC1 | - | - | IC50 | ELISA / nucleotide incorporation | BH10 | >371.1 µM
O=C1CSC(c2c(F)cccc2Cl)N1Cc1ccco1 | - | - | IC50 | ELISA | - | >10 µg/mL
Cc1cc(C)cc(S(=O)(=O)N2CCN(C(=O)c3cc(O)c(O)c(O)c3)CC2)c1 | - | - | IC50 | ELISA / nucleotide incorporation | BH10 | >50 µM
Cc1nc(N2C(=O)CSC2c2c(F)cccc2F)ccc1Br | - | - | IC50 | ELISA | - | >10 µg/mL
COc1nc(C)nc(N2C(=O)CSC2c2c(Cl)ncnc2Cl)n1 | - | 10 µg/mL | inhibition | RT activity / ELISA / absorbance | - | 12.24%
O=C1CSC(c2c(Cl)cccc2Cl)N1C1CCCCC1 | - | - | IC50 | ELISA | - | >10 µg/mL
Cc1cc(C)cc(S(=O)(=O)N2CCC(NC(=O)c3cc(O)c(O)c(O)c3)CC2)c1 | - | - | IC50 | ELISA / nucleotide incorporation | BH10 | >158.6 µM
Cc1ccc(CN2C(=O)CSC2c2c(Cl)cccc2Cl)o1 | - | - | IC50 | ELISA | - | ~10 µg/mL
CCOc1cc(C)c(Cl)c2c1C(=O)C=CC2=O | - | 100 µg/mL | inhibition | RT activity | - | 80%
O=C1CCSC(c2c(Cl)cccc2Cl)N1Cc1ccco1 | - | - | IC50 | ELISA | - | <10 µg/mL
C1=Cc2cccnc2N(C2CC2)c2ncccc21 | RT-P236 | 1 µM | inhibition | nucleotide incorporation | - | 99%
Cc1occc1C(=S)Nc1ccc(Cl)c(/C=N/OC(C)(C)C)c1 | RT-E138K | - | fold resistance | - | - | 1.55
O=C1CSC(c2c(F)cccc2Cl)N1c1cccc(C(F)(F)F)c1 | - | - | IC50 | ELISA | - | >10 µg/mL

Repeating the final 5 entries:

SMILES	mutations	tested at	read-out	read by	strain or isolate	result
CCOc1cc(C)c(Cl)c2c1C(=O)C=CC2=O	-	100 µg/mL	inhibition	RT activity	-	80%
O=C1CCSC(c2c(Cl)cccc2Cl)N1Cc1ccco1	-	-	IC50	ELISA	-	<10 µg/mL
C1=Cc2cccnc2N(C2CC2)c2ncccc21	RT-P236	1 µM	inhibition	nucleotide incorporation	-	99%
Cc1occc1C(=S)Nc1ccc(Cl)c(/C=N/OC(C)(C)C)c1	RT-E138K	-	fold resistance	-	-	1.55
O=C1CSC(c2c(F)cccc2Cl)N1c1cccc(C(F)(F)F)c1	-	-	IC50	ELISA	-	>10 µg/mL